Fitness effects across NS2B and the NS3 protease domain of Zika virus

Reference: Ni et al. 2025, doi:10.1038/s41467-025-63602-z.

Chain scanned (Zika virus MR766; NS2B from position 2 to 131, then the start of NS3):
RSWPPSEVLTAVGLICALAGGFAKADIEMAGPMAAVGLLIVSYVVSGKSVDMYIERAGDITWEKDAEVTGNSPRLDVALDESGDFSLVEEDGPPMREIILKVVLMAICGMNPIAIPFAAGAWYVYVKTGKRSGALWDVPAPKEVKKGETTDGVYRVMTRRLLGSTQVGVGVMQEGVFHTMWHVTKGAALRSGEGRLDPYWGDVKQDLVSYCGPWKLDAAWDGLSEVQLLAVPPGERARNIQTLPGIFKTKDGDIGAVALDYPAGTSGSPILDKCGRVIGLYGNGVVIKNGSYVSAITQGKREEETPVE

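Mutant virus pools were grown in human Huh-7.5 cells. Deep sequencing gave the change in frequency of each mutant relative to wild type, averaged over three replicate libraries (two for positions 207-308).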

Values are log2 effects on growth: 0 is wild type, lower means poorer growth. Substitutions are written as wild-type residue, site number, new residue. All changes here are to cysteine. The region was split into three libraries (1-103, 104-206, 207-308). The authors count -1 or higher as tolerated. Position 1 is the last residue of NS2A. Values above 0 are not proof of better growth: six high scorers were tested one by one, five grew less well than wild type and one about as well.

mutation,log2 effect
L104C,-2.23
M105C,-5.78
A106C,-0.67
I107C,-0.85
G109C,-2.34
M110C,-0.72
N111C,-2.95
P112C,-4.75
I113C,-1.52
A114C,-0.61
I115C,-2.57
P116C,-4.93
F117C,-1.74
A118C,-1.09
A119C,-1.46
G120C,-0.68
A121C,-1.32
W122C,-5.53
Y123C,-2.34
V124C,-2.42
Y125C,-5.30
V126C,-1.35
K127C,-5.67
T128C,-5.42
G129C,-5.51
K130C,-5.30
R131C,-5.31
S132C,-5.57
G133C,-5.41
A134C,-2.24
L135C,-6.85
W136C,-3.16
D137C,-5.91
V138C,-5.54
P139C,-4.98
A140C,-0.90
P141C,-4.49
K142C,-2.95
E143C,-0.64
V144C,-1.92
K145C,-1.42
K146C,-1.18
G147C,-4.11
E148C,-2.07
T149C,-1.43
T150C,-1.91
D151C,-1.40
G152C,-5.73
V153C,-2.54
Y154C,-5.21
R155C,-5.54
V156C,-5.54
M157C,-2.13
T158C,0.93
R159C,-4.89
R160C,-1.69
L161C,-3.95
L162C,-3.69
G163C,-1.96
S164C,0.47
T165C,0.84
Q166C,-5.29
V167C,-0.94
G168C,-3.99
V169C,-0.90
G170C,-5.64
V171C,-5.41
M172C,-5.87
Q173C,-1.64
E174C,-3.44
G175C,-4.16
V176C,-3.48
F177C,-5.20
H178C,-4.98
T179C,-5.50
M180C,-4.87
W181C,-4.16
H182C,-3.36
V183C,-5.36
T184C,-5.76
K185C,-4.10
G186C,-2.74
A187C,-1.58
A188C,-2.72
L189C,-4.43
R190C,-4.26
S191C,-4.63
G192C,-2.53
E193C,-0.43
G194C,-4.84
R195C,-5.69
L196C,-1.90
D197C,-0.89
P198C,-4.80
Y199C,-0.73
W200C,-6.43
G201C,-5.47
D202C,-0.70
V203C,-2.90
K204C,-6.93
Q205C,-6.24
D206C,-6.23
L207C,-3.92
V208C,-0.44
S209C,-0.68
Y210C,-5.95
G212C,-6.67
P213C,-1.85
W214C,-7.99
K215C,-4.11
L216C,-1.21
D217C,-5.88
A218C,-3.94
A219C,1.10

Extract of 15 entries:

- Q205C -> -6.24
- T149C -> -1.43
- T158C -> 0.93
- P112C -> -4.75
- R159C -> -4.89
- V144C -> -1.92
- A118C -> -1.09
- S164C -> 0.47
- G201C -> -5.47
- R195C -> -5.69
- G152C -> -5.73
- A188C -> -2.72
- H178C -> -4.98
- V183C -> -5.36
- S209C -> -0.68